Test results reported in patent publication US8686113B2 (priority 2009, dated 2014).

Tests used:
Assay type in all cases: cell-based
HeLa cells = test: Fluorescence microscopy of labeled peptides; conditions: 40 μmol/L, 2 h
M. luteus 10240 = test: Confocal laser scanning microscopy, bacteria; conditions: 30 μmol/L, TAMRA quench, incubation for 1 h
E. coli BL21 A1 = test: Confocal laser scanning microscopy, bacteria; conditions: 30 μmol/L, TAMRA quench; for internalization in E. coli: time not stated
SH-SY5Y cells = test: Fluorescence microscopy of labeled peptides; conditions: 40 μmol/L, 2 h

Substance | internalization (fluorescence) in HeLa cells (HeLa cells) | internalization (fluorescence) in SH-SY5Y cells (SH-SY5Y cells) | other results
CF-RQIKIWFQNRRMKWKKC-(CH2CO-GNNRPVYIPQPRPPHPRL-OH)-OH [SEQ ID NO. 96] | internalize |  | 
(CF-RQIKIWFQNRRMKWKKC-OH)2 [SEQ ID NO. 104] |  |  | internalization (fluorescence) in M. luteus (M. luteus 10240): enters Gram-positive M. luteus cells
H-CFVDKPPYLPRPRPPRRIYNR-NH2 [SEQ ID NO. 94] | fluorescence is not detectable | fluorescence is not detectable | localization in E. coli after 50 min (E. coli BL21 A1; 20 min plus a further 30 min): accumulated inside the cell; localization in E. coli after 20 min (E. coli BL21 A1; incubation for 20 min): accumulated in the bacterial membrane
H-CFGKPRPYSPRPTSHPRPIRV-OH [SEQ ID NO. 90, reference compound] | no internalization | no internalization | internalization in E. coli (E. coli BL21 A1): internalize in E. coli
H-CFGNNRPVYIPQPRPPHPRL-OH [SEQ ID NO. 88, reference compound] | no internalization | no internalization | internalization in E. coli (E. coli BL21 A1): internalize in E. coli
CF-RQIKIWFQNRRMEWKKC-(CH2CO-VDKPPYLPRPRPPRRIYNR-NH2)-OH [SEQ ID NO. 102] | strong fluorescence in the cell interior |  | 
CF-RQIKIWFQNRRMKWKKC-(CH2CO-GKPRPYSPRPTSHPRPIRV-OH)-OH [SEQ ID NO. 98] | internalize |  | 
